From patent US20030181436A1, “Treatment for AIDS, HIV, and other related diseases and compounds for use therewith” (priority 2001, published 2003)

System: HIV-1 attachment to HeLa CD4 LTR B-gal cells
Assay: Inhibition of attachment assay
Type: cell-based
Protocol: The attachment assay was performed with the HeLa CD4 LTR B-gal cells available from the AIDS Research and Reference Reagent Repository. […] HeLa CD4 LTR B-gal cells express cell surface CD4 and contain an LTR B-galactosidase reporter construct. Upon infection either the Tat protein incorporated into the virion or new Tat produced following virus integration and transcription trans-activate the LTR B-gal reporter, leading to expression of the B-galactosidase enzyme. HeLa CD4 LTR B-gal cells are routinely cultured with the required selection antibiotics and scrended for mycoplasma contamination. Twenty-four h prior to initiation of the assay cells were trypsinized, counted and 1×10^4 cells placed in a 0.2 cm well in media without selection antibiotics. Media was removed and compound media placed on the cells and incubated for 15 to 30 min at 37° C. A known titer of virus was then added to the wells and the incubation continued for 1 h. At the end of the incubation the wells were washed 6 times with media and the culture continued for 48 h. At 48 h the wells were washed one time with PBS and B-galactosidase enzyme expression determined by chemiluminescence per manufacturers instructions (Tropix Gal-screen TM, Tropix, Bedford, Mass.). Compound toxicity was monitored on sister plates using MTS dye reduction. (See Tables 14 through 16 and FIGS. 21 and 22).

Zinc Iodiscorbate [Compound Z]
RLU (Relative Light Units) MEAN (0.32 μG/Ml): 137321.7 RLU
RLU (Relative Light Units) MEAN (1 μG/Ml): 144365.3 RLU
RLU (Relative Light Units) MEAN (3.2 μG/Ml): 113431.3 RLU
RLU (Relative Light Units) MEAN (10 μG/Ml): 95054.0 RLU
RLU (Relative Light Units) MEAN (32 μG/Ml): 82862.7 RLU
RLU (Relative Light Units) MEAN (100 μG/Ml): 101665.0 RLU
